In paper PMC7703574 (Journal of medicinal chemistry, 2020):

System: CD4-dependent HIV-1ADA
Test: Infectivity of […] cells by CD4-dependent HIV-1ADA
Conditions: escalating concentrations

Q: `CC1(C)CC(NC(=O)C(=O)Nc2ccc(Cl)cc2)CC(C)(C)N1` [NBD-556] was tested. Which “infection of […] cells enabled” value did it give?
A: significantly enabled the infection
